Measurements: US20170224780A1 (priority 2014, published 2017)

Tested on: ovaries from 12-day-old neonatal mice

SMILES: NP(=O)(O)N(CCCl)CCCl
- numbers of primordial follicles, PM alone compared with untreated ovaries (PM for 4 hours, then medium alone, p<0.01, FIG. 7): significantly reduced numbers
- ratio of growing to dormant follicles, PM alone (day 4 and 7, compared among treatment groups, FIG. 8): greatest
